PubChem BioAssay AID1259414 | Drosophila RNAi Screening Center, 2018
In all, the deposit lists about 24,000 reagents; this is an unselected part of those with a known target gene and a result. Of all reagents, about 1,210 (5%) were called active. 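Inactive calls also include excluded dsRNAs with several or no targets, genes unexpressed in JW18, and well A1, regardless of score.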 Unmarked entries are inactive.

Assay: 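Genome-wide screen for host control of endosymbiont load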 (primary screen)
Cells: Drosophila JW18 cells infected with Wolbachia
Reagent: long dsRNA against Drosophila genes, 0.25 µg dsRNA per well of a 384-well plate
Timing: 5 days
Challenge: cells persistently infected with Wolbachia before knock-down; no added drug
Read-out: 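Imaged fluorescence in situ signal for Wolbachia 23S rRNA per DAPI-counted host cell, given as a robust z-score within each plate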
Direction: Wolbachia per cell robust z: higher = more Wolbachia per host cell than the plate typical
Call rule: 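Hit when robust z is 1.5 or more, or -1.5 or less, in at least two of three replicates; excludes dsRNAs with several or no targets, genes not expressed in JW18 and well A1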

For CG8500 [DRSC16434], what does the deposit list?
Wolbachia per cell robust z, rep 1: -0.526; Wolbachia per cell robust z, rep 2: -7.92; Wolbachia per cell robust z, rep 3: -1.29

With CG8500 [DRSC27083], what was measured?
Wolbachia per cell robust z, rep 1: -4.52; Wolbachia per cell robust z, rep 2: 1.04; Wolbachia per cell robust z, rep 3: 0.346

With CG7029 [DRSC16177], what was measured?
Wolbachia per cell robust z, rep 1: 0.667; Wolbachia per cell robust z, rep 2: 1.18; Wolbachia per cell robust z, rep 3: -0.314

Which result is listed for CG7029 [DRSC23898]?
Wolbachia per cell robust z, rep 1: 0.403; Wolbachia per cell robust z, rep 2: -0.0834; Wolbachia per cell robust z, rep 3: 2.75

With CG14668 [DRSC12254], what does the deposit list?
Wolbachia per cell robust z, rep 1: 0.00194; Wolbachia per cell robust z, rep 2: 0.185; Wolbachia per cell robust z, rep 3: 1.09

For CG16854 [DRSC02536], how do the results read?
Wolbachia per cell robust z, rep 1: 0.205; Wolbachia per cell robust z, rep 2: -1.15; Wolbachia per cell robust z, rep 3: 1.18

What did the screen give for klhl10 [DRSC37921]?
Wolbachia per cell robust z, rep 1: -0.607; Wolbachia per cell robust z, rep 2: 0.0976; Wolbachia per cell robust z, rep 3: 1.17

With klhl10 [DRSC38784], what was measured?
Wolbachia per cell robust z, rep 1: -0.871; Wolbachia per cell robust z, rep 2: 0.733; Wolbachia per cell robust z, rep 3: 1.68

What is on record for Est-P [DRSC11163]?
Wolbachia per cell robust z, rep 1: 0.475; Wolbachia per cell robust z, rep 2: -0.388; Wolbachia per cell robust z, rep 3: -4.22

What is on record for Est-P [DRSC39152]?
Wolbachia per cell robust z, rep 1: -0.273; Wolbachia per cell robust z, rep 2: 1.05; Wolbachia per cell robust z, rep 3: 1.31

For Tango4 [DRSC19786], what does the deposit list?
Wolbachia per cell robust z, rep 1: 1.53 (active); Wolbachia per cell robust z, rep 2: 2.06; Wolbachia per cell robust z, rep 3: 1.26

How did the screen score Tango4 [DRSC23475]?
Wolbachia per cell robust z, rep 1: 0.877 (active); Wolbachia per cell robust z, rep 2: 1.95; Wolbachia per cell robust z, rep 3: 3.06

With ath [DRSC02788], how do the results read?
Wolbachia per cell robust z, rep 1: -1.42; Wolbachia per cell robust z, rep 2: -1.05; Wolbachia per cell robust z, rep 3: -2.8

With CG6785 [DRSC02993], what does the deposit list?
Wolbachia per cell robust z, rep 1: -1.67; Wolbachia per cell robust z, rep 2: 0.892; Wolbachia per cell robust z, rep 3: -0.162

With CG6785 [DRSC25446], what was measured?
Wolbachia per cell robust z, rep 1: -0.101; Wolbachia per cell robust z, rep 2: -0.427; Wolbachia per cell robust z, rep 3: 0.0218

With CG31867 [DRSC03338], how do the results read?
Wolbachia per cell robust z, rep 1: -1.54; Wolbachia per cell robust z, rep 2: -1.02; Wolbachia per cell robust z, rep 3: 1.62

Reformatted: results already given.
gene knocked down,amplicon,"Wolbachia per cell robust z, rep 1","Wolbachia per cell robust z, rep 2","Wolbachia per cell robust z, rep 3"
Tango4,DRSC19786,1.53 (active),2.06,1.26
Tango4,DRSC23475,0.877 (active),1.95,3.06
